Here are results for three compounds from paper PMC5109037, “Harnessing Nature’s Diversity: Discovering organophosphate bioscavenger characteristics among low molecular weight proteins” (2016).

Usually Km stands for the concentration of substrate that gives half-maximal velocity.

The target in experiment [1] is Smu. 1393c expressed with zinc (Streptococcus mutans, UniProt Q8DTF4). The note with it: read-out: Km (mM), Paraoxon.
Experiment [2] has as its target T1, Smu. 1393c (Streptococcus mutans, UniProt Q8DTF4). The experiment is described as follows: p-Nitrophenyl acetate hydrolysis followed by absorbance at 405 nm, Michaelis-Menten fit, no inhibitor.
The target in experiment [3] is T1, Smu. 1393c. As to the kind of experiment: Omethoate hydrolysis (0-18 mM) followed by Ellman assay in 50 mM bis-tris-propane pH 7.4 with 5 uM enzyme, Michaelis-Menten fit. To be noted: read-out: Km (mM), Omethoate. On the technique in general: DTNB colorimetry detects thiols as they appear.

On to `CCOP(=O)(OCC)Oc1ccc([N+](=O)[O-])cc1`, for which the Km in experiment [1] is 0.0055 mM.
Regarding `CC(=O)Oc1ccc([N+](=O)[O-])cc1`, the Km on Smu. 1393c [2] worked out at 6700 µM.
For `CNC(=O)CSP(=O)(OC)OC`, the Km at Smu. 1393c [3] came out at 2.6 mM.
